In patent publication US6488953B2, “Oral transmucosal delivery” (Controlled Therapeutics (Scotland) Ltd., priority 1998, dated 2002):

Assay: Loading of model peptides into polymers of different ESU
Type: physicochemical
Design: key: +: Good uptake; −: no uptake

Substance | uptake into polymer (polymer E.S.U. 280 %) | uptake into polymer (polymer E.S.U. 490 %) | uptake into polymer (polymer E.S.U. 1120 %) | uptake into polymer (polymer E.S.U. 733 %)
Bovine Serum Albumin: model peptide, molecular wt 60,000 | − | − | + | 
Lysozyme | − |  | + | +
Melanostatin | + | + | + | +
Myoglobin | − | − | + | +
